Experimental data as given in publication PMC8765435, “In Vitro Antimalarial Activity of Inhibitors of the Human GTPase Rac1” (Antimicrobial Agents and Chemotherapy, 2022).

System: HMEC-1 human microvascular endothelial cells
Assay: Cell cytotoxicity MTT assay
Format: cell-based
Conditions: ratio IC50 against HMEC-1 cells / IC50 against D10 asexual parasites
Method: Cytotoxicity was evaluated on human microvascular endothelial cells (HMEC-1) as detailed in the supplemental material. […] Plates were then read on a microplate reader (Synergy 4; BioTek) at a wavelength of 550 nm (reference, 650 nm). […] All tests were performed in duplicate at least three times.
The selectivity index (SI) is the ratio between the cytotoxic IC50 value against HMEC-1 cells and the parasitic IC50 value against the D10 strain and indicates the compound selectivity for the parasite.
Cytotoxicity was evaluated on Human Microvascular Endothelial Cells (HMEC-1) maintained
and 2 mM L-glutamine. Cells were seeded in 96 well flat bottom tissue culture clusters (1.5x104
cells/well), let adhere overnight and treated with serial dilutions of test compounds . […]

`Cc1cc(C)cc(NC(N)=Nc2ccccc2C(F)(F)F)c1` [Compound 1A116] was tested, and the “SI (selectivity index)” value was 41.1.
